# Reference: PubChem BioAssay AID651654 (Broad Institute, 2012)
# Only a part is listed here, and it is no random draw. The source made the active and inactive calls.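 The calls were made as follows: active = mean lysis activity across replicates of at least 80%, whatever share of replicates individually reach that level; inactive = mean lysis activity below 80%.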
# Test: fungicidal lysis via adenylate kinase leakage – AK release luminescence, single concentration, primary screen (AID 651654)
# Conditions: C. neoformans lysis, 4 h, at 15 µM, stronger effect = higher value, normalised: neutral wells 0, clomiphene wells 100
# Outline: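 Material – Cryptococcus neoformans yeast cells · Quantity – 5 × 10^6 yeast cells/mL · Buffer or medium – YPD medium · Compound – single dose · Timing – 4 h static compound exposure, 37 °C, read 1 h post-reagent · Signal – adenylate kinase release luminescence · Read-out basis – lysis from increased AK signal · Benchmarks – Clomiphene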
row,SMILES,lysis activity
1,COc1cc(C(=O)NCC2(N3CCOCC3)CCCCC2)cc(OC)c1C,inactive: 2.61%
2,O=c1[nH]c2ccccc2n1C1CCN(C(c2ccnc3ccccc23)c2nnnn2C2CCCC2)CC1 (stereo not drawn),inactive: 0.269%
3,O=c1[nH]c2ccccc2n1C1CCN(C(c2cccs2)c2nnnn2C2CCCCC2)CC1 (stereo not drawn),inactive: -1.19%
4,c1ccc(CN2CCC(Nc3ccccc3)CC2)cc1,inactive: -0.136%
5,CCCN1CCC(Nc2cc(OC)cc(OC)c2)CC1,inactive: 3.05%
6,O=c1[nH]c2ccccc2n1C1CCN(C(c2ccccc2)c2nnnn2C2CCCC2)CC1 (stereo not drawn),inactive: -13.1%
7,CN(C)C1(CNC(=O)c2cccc(C#N)c2)CCCCC1,inactive: 0.862%
8,CC(C)(C)n1nnnc1C(c1cccc2ccccc12)N1CCC(n2c(=O)[nH]c3ccccc32)CC1 (stereo not drawn),inactive: -17.5%
9,CC(C)(C)OC(=O)N1CCC(N(C(=O)c2ccccc2)c2ccc(Cl)cc2)CC1,inactive: 3.01%
10,N#Cc1ccc(C(=O)NCC2(N3CCCCC3)CCCCC2)cc1,inactive: -1.37%
11,Cc1ccccc1NC1(C#N)CCN(Cc2ccccc2)CC1,inactive: 1.83%
12,CC(C)(C)n1nnnc1C(c1ccnc2ccccc12)N1CCC(n2c(=O)[nH]c3ccccc32)CC1 (stereo not drawn),inactive: 3.88%
13,COc1ccc(C(c2nnnn2C2CCCCC2)N2CCC(n3c(=O)[nH]c4ccccc43)CC2)cc1 (stereo not drawn),inactive: 0.393%
14,O=C(NCC1(N2CCCCC2)CCCCC1)c1ccco1,inactive: 0.697%
15,Cn1c(=O)[nH]cc(N(CCCl)CCCl)c1=O,inactive: -1.05%
16,O=c1[nH]c2ccccc2n1C1CCN(C(c2ccnc3ccccc23)c2nnnn2C2CCCCC2)CC1 (stereo not drawn),inactive: -9.13%
17,COc1cc(OC)cc(C(=O)NCC2(N3CCCCC3)CCCCC2)c1,inactive: 14.2%

row,SMILES,lysis activity
1,CC(=O)N(c1ccccc1)C1CCNCC1,inactive: 1.52%
2,COc1cccc(C(c2nnnn2C2CCCCC2)N2CCC(n3c(=O)[nH]c4ccccc43)CC2)c1OC (stereo not drawn),inactive: 1.04%
3,CCC(c1nnnn1C1CCCCC1)N1CCC(n2c(=O)[nH]c3ccccc32)CC1 (stereo not drawn),inactive: -2.53%
4,Cc1ccc(NC2(C#N)CCN(Cc3ccccc3)CC2)cc1,inactive: -0.521%
5,Cc1ccc(C(=O)NCC2(N3CCCCC3)CCCCC2)o1,inactive: 1.25%
6,Fc1ccccc1NC1CCN(Cc2ccccc2)CC1,inactive: 0.793%
7,CCC(CO)(C(=O)OC1CN2CCC1CC2)c1ccccc1 (stereo not drawn),inactive: -1.62%
8,COc1cccc(C(c2nnnn2C2CCCC2)N2CCC(n3c(=O)[nH]c4ccccc43)CC2)c1OC (stereo not drawn),inactive: -13.7%
9,COc1cc(OC)cc(C(=O)NCC2(N3CCOCC3)CCCCC2)c1,inactive: 0.941%
10,COc1cccc(C(=O)N(c2cc(C)cc(C)c2)C2CCN(C(=O)OC(C)(C)C)CC2)c1,inactive: -4.35%
11,CN1CCC(Nc2ccc(Cl)cc2)CC1,inactive: 0.408%
12,CCOc1ncccc1C(=O)NCC1(N2CCOCC2)CCCCC1,inactive: -3.03%
13,CN1CCC(Nc2ccc(F)c(Cl)c2)CC1,inactive: -0.633%
14,CCCOc1ccc(C(=O)NCC2(N(C)C)CCCCC2)cc1,inactive: -1.74%
15,O=c1[nH]c2ccccc2n1C1CCN(C(c2cc3ccccc3o2)c2nnnn2C2CCCC2)CC1 (stereo not drawn),inactive: -22.7%
16,O=C(O)C1(Nc2ccccc2)CCN(Cc2ccccc2)CC1,inactive: 1.11%
